From paper PMC12434534, “Synthesis and Antiviral Evaluation of Unexplored Dioxolane-Derived 7‑Deazapurine Nucleoside Analogues against Epstein–Barr Virus (EBV)” (ACS Medicinal Chemistry Letters, 2025)

System: HIV-FL
Conditions: selectivity index = CC50/EC50, TZM-GFP cells
Description: First, TZM-GFP cells were seeded in the 96-well plate (10 000/well), and after 24 h, selected compounds and HIV FL virus (MOI = 0.1) were added to the plate. […] At 48 h post-infection (hpi), GFP production due to infection was measured by Cytation 5, and a 50% reduction in efficacy (EC50) and cell viability (CC50) were determined using GraphPad software (San Diego, CA, USA, www.graphpad.com). […]
(10,000/well), and after 24 h, selected compounds and HIV FL (MOI=0.1) virus were added to the […]
plate. […] At 48 h post-infection (hpi), the GFP cells were measured by Cytation 5, and a 50% reduction in efficacy (EC50) and cell viability (CC50) was determined using GraphPad software (San Diego, California, www.graphpad.com). […]
Evaluation of Cytotoxicity: The cytotoxic effects of test compounds for P3HR1 and TZN-GFP cells were determined by CellTiter 96 Non-Radioactive Cell Proliferation assay system (Promega) using either 2,3-Bis-(2-Methoxy-4-nitro-5-sulfophenyl)-2H-tetrazolium-5-carboxanilide, disodium salt (XTT) or 3- (4,5-dimethylthiazol-2-yl)-2,5-diphenyltetrazolium bromide (MTT) methods under the same conditions as the antiviral assay but in the absence virus. Cells were seeded at a density of 1 x 105 (P3HR-1) or 2 x 104 (TZM-GFP) cells per well in 96-well plates and […]

Compound	SI (CC50/EC50), HIV-FL
Nc1ncnc2c1ccn2[C@H]1CO[C@@H](CO)O1 [Compound 12]	>17
Nc1ncnc2c1c(F)cn2[C@H]1CO[C@@H](CO)O1 [Compound 13]	>25.2
